From article PMC8915965, “CD164 is a host factor for lymphocytic choriomeningitis virus entry” (2022)

Assay: acid bypass with Bafilomycin A1, eGFP flow cytometry
Settings: glycan lost; control: hCD164PM

B1: CD164: N104Q hCD164PM (protein)
parent chain: MSRLSRSLLWAATCLGVLCVLSADKNTTQHPNVTTLAPISNVTSAPVTSLPLVTTPAPETCEGRNSCVSCFNVSVVNTTCFWIECKDESYCSHNSTVSDCQVGNTTDFCSVSTATPVPTANSTAKPTVQPSPSTTSKTVTTSGTTNNTVTPTSQPVRKSTFDAASFIGGIVLVLGVQAVIFFLYKFCKSKERNYHTL
Q: With B1 as the protein, how does the “other: virus-cell fusion at plasma membrane” value read?
A: abolishes
